Anti-infective test results gathered from many reports (values: NIAID ChemDB through PubChem).

Shared fields: growth or infection tests; species: Mycobacterium tuberculosis

Inhibition is in % at the dose shown (toxicity tests: loss of growth or viability). An empty or dashed field is not shown. MIC bound: limit read from a one-dose screen. ECn: concentration that inhibits the pathogen or its effect by n%. MIC50, MIC90 and the like: level of inhibition, or share of isolates inhibited. Neighbouring rows are from separate reports. Fold resistance has wild type as its base.

compound | tested at | strain or isolate | read-out | cell line | changes | read by | value
CN1C(=O)Cn2c(nn(CCN3CCOCC3)c(=O)c2=O)-c2cc(Cl)ccc21 |  | H37Rv | MIC bound |  |  | BACTEC | >12.5 µg/mL
Cn1c2ccccc2c2cc(C=NNc3nc(-c4cc5cc(Br)ccc5oc4=O)cs3)ccc21 |  | H37Rv | MIC |  |  | fluorescence | >200 µM
NNC(=O)c1ccncc1 |  | Strain 32 | MIC |  |  |  | 0.06 µg/mL
CSc1ccc(-c2nn(-c3ccccc3)cc2C2CC(c3ccc(Cl)cc3)=NN2C(C)=O)cc1 | 6.25 µg/mL | H37Rv | inhibition |  |  | BACTEC | 42%
CNC(=S)c1ccc(C(=O)N(C(C)C)C(C)C)nc1C(=O)N(C(C)C)C(C)C | 6.25 µg/mL | H37Rv | inhibition |  |  | BACTEC | 0%
CCn1cc(C(=O)O)c(=O)c2cc(F)c(N3CCN(Cn4c(O)c(N=NC(=O)c5ccncc5)c5cc(Cl)ccc54)CC3)cc21 | 12.5 µg/mL | H37Rv | inhibition |  |  | BACTEC | 99%
Cc1c(-c2ccc(Cc3ccc(F)cc3)cc2)[nH]c2ccccc2c1=O | 5 µM | H37Rv | inhibition |  |  | fluorescence | 65.3%
CC1=C(C)C(=O)C(C(C)(C)CC(=O)n2cc(F)c(=O)[nH]c2=O)=C(C)C1=O |  | RMP-R | MIC |  |  |  | 4 µg/mL
Fc1ccc(-n2ncc(C(c3ccccc3)n3ccnc3)c2-c2ccccc2)c(F)c1 |  | ATCC 35837 (ethambutol-resistant) | MIC50 |  |  |  | ≥100 µM
CCN1C(C#N)=C(C#N)N=C(c2ccsc2)[C@H]1/C=C/c1ccccc1 |  | H37Rv | MIC |  |  | broth dilution / visual reading | 12.5 µg/mL
S=C(Nc1ccccc1)c1ccccn1 |  | H37Rv | MIC | VERO |  | resazurin | 1.56 µg/mL
CCc1nc2ccccc2n1CCCNc1ccc(C)c(C)c1 |  | H37Rv | MIC99 |  |  | turbidity / fluorescence | 0.65 µM
Cc1ccc(-n2c(-c3ccccc3)cs/c2=N/NC(=O)CSc2nnc(-c3ccccn3)s2)cc1 |  | H37Rv | MIC |  |  |  | >80 µg/mL
CSc1ccc(C2=NN(C(C)=O)C(c3cn(-c4ccccc4)nc3-c3ccc(SC)cc3)C2)cc1 | 6.25 µg/mL | H37Rv | inhibition |  |  | BACTEC | 18%
C=C(C)[C@@H]1CC[C@]2(C(=O)O)CC[C@]3(C)C(CCC4[C@@]5(C)CC[C@H](OC(=O)/C=C/c6ccc(O)c(OC)c6)C(C)(C)C5CC[C@]43C)C12 |  | H37Ra | MIC |  |  | resazurin | 200 µg/mL
CCc1nc2ccccc2n1CCCCOc1ccccc1 |  | H37Rv | MIC90 |  | WT | turbidity / fluorescence | 16 µM
O=C(CSc1nnc(-c2ccccn2)s1)N/N=c1/scc(-c2ccccc2)n1-c1cccc(Br)c1 |  | Clinical isolate 190 | MIC |  |  |  | >80 µg/mL
COC1=C[C@@H]2[C@@H]3Cc4ccc(OC)c(O)c4[C@]2(CCN3C)CC1=O | 12.8 µg/mL | H37Rv | inhibition |  |  | BACTEC | 13%
CC(=O)Oc1ccc(/C=C/C(=O)O[C@H]2CC[C@@]3(C)C(CC[C@]4(C)C3CC=C3C5[C@@H](C)[C@H](C)CC[C@]5(C(=O)O)CC[C@]34C)C2(C)C)cc1OC(C)=O |  | H37Ra | MIC |  |  | resazurin | 100 µg/mL
CCN1CC(c2ccsc2)=NC(C#N)=C1C#N |  | H37Rv | MIC |  |  | broth dilution / visual reading | 6.2 µg/mL
Cc1[nH]c2ccccc2c(=O)c1-c1ccc(Oc2ccc(OC(F)(F)F)cc2)cc1 | 5 µM | H37Rv | inhibition |  |  | fluorescence | 0%
CCc1nc2ccc(C)cc2n1CCCCSc1ccc(OC)cc1 |  | H37Rv | MIC90 |  | Rv1339 V90M | turbidity / fluorescence | 10 µM
O=c1cc(-c2ccc(Cc3ccc(OC(F)(F)F)cc3)cc2)n(O)c2ccccc12 | 5 µM | H37Rv | inhibition |  |  | fluorescence | 0%
O=C(CSc1nnc(-c2ccccn2)s1)N/N=c1/scc(-c2ccccc2)n1-c1ccccc1Cl |  | Clinical isolate 180 | MIC |  |  |  | 40 µg/mL
Cn1c2ccccc2c2cc(C=NNc3nc(-c4ccc(F)cc4)cs3)ccc21 |  | H37Rv | MIC |  |  | fluorescence | >200 µM
CCCCCCCCCCCC1=c2o[nH]c2=C(c2ccccn2)C(=O)C1=O |  | H37Rv | MIC bound |  |  | BACTEC | >12.5 µg/mL
CSc1ccc(-c2nn(-c3ccccc3)cc2C2CC(c3ccc(N)cc3)=NN2)cc1 | 6.25 µg/mL | H37Rv | inhibition |  |  | BACTEC | 10%
NC(=O)c1cnccn1 |  | H37Rv | MIC |  |  | broth dilution / visual reading | 12.5 µg/mL
CC1(C)CC[C@]2(C(=O)O)CC[C@]3(C)C(=CCC4[C@@]5(C)CC[C@H](OC(=O)/C=C/c6ccc(O)cc6)C(C)(C)C5CC[C@]43C)C2C1 |  | H37Ra | MIC |  |  | resazurin | 6.25 µg/mL
CCOC(=O)C1=NN(c2ccccc2)C(=O)C1N=Nc1c(Br)cc(S(N)(=O)=O)cc1Br |  | H37Rv | MIC |  |  | BACTEC | ≥12.5 µg/mL
CCn1cc(C(=O)O)c(=O)c2cc(F)c(N3CCN(Cn4c(O)c(N=NC(=O)c5ccncc5)c5ccccc54)CC3)cc21 |  | H37Rv | MIC |  |  | BACTEC | <6.25 µg/mL
NNC(=O)c1ccncc1 |  | H37Rv | MIC |  |  | broth dilution / visual reading | 0.1 µg/mL
Fc1ccc(-c2c(C(c3ccccc3)n3ccnc3)cnn2-c2ccc(F)cc2)cc1 |  | ATCC 35820 (streptomycin-resistant) | MIC90 |  |  |  | ≥100 µM
O=C(CSc1nnc(-c2ccccn2)s1)N/N=c1/scc(-c2ccccc2Br)n1-c1ccccc1 |  | Clinical isolate 331 | MIC |  |  |  | >80 µg/mL
Clc1ccc(-c2c(C(c3ccccc3)n3ccnc3)cnn2-c2ccccc2)cc1 |  | ATCC 35828 (pyrazinamide-resistant) | MIC50 |  |  |  | ≥100 µM
Cc1c(-c2ccc(-c3ccc(OC(F)(F)F)cc3)nc2)[nH]c2ccccc2c1=O | 5 µM | H37Rv | inhibition |  |  | fluorescence | 11.1%
O=C(CSc1nnc(-c2ccccn2)s1)N/N=c1/scc(-c2ccc([N+](=O)[O-])cc2)n1-c1ccccc1 |  | Clinical isolate 190 | MIC |  |  |  | 40 µg/mL
NNC(=O)c1ccncc1 |  | ATCC 35828 (pyrazinamide-resistant) | MIC50 |  |  |  | 0.1 µM
CCn1cc(C(=O)O)c(=O)c2cc(F)c(N3CCN(Cn4c(O)c(N=NC(N)=S)c5ccccc54)CC3)cc21 | 12.5 µg/mL | H37Rv | inhibition |  |  | BACTEC | 98%
CCNc1ncnc2sc(SCc3ccccc3)nc12 | 12.5 µg/mL | H37Rv | inhibition |  |  | BACTEC | 24%
CCCCc1nc(Cl)c(C2C(C(=O)Nc3cccc([N+](=O)[O-])c3)=C(C)NC(C)=C2C(=O)Nc2cccc([N+](=O)[O-])c2)[nH]1 | 6.25 µg/mL | H37Rv | inhibition |  |  | resazurin | 85%
Cc1nc2c(n1C)C(=O)c1ccccc1C2=O | 6.25 µg/mL | H37Rv | inhibition |  |  | resazurin | 32%
CCc1nc2ccc(C)cc2n1CCCCOc1ccccc1 |  | H37Rv | fold resistance |  | QcrB M342T | turbidity / fluorescence | 56
CSc1ccc(-c2nn(-c3ccccc3)cc2C2CC(c3ccc(N)cc3)=NN2C(C)=O)cc1 | 6.25 µg/mL | H37Rv | inhibition |  |  | BACTEC | 56%
Cn1c2ccccc2c2cc(C=NNc3nc(-c4cccc(Cl)c4)cs3)ccc21 |  | H37Rv | EC50 |  |  | fluorescence | >200 µM
COc1ccc(C2=NNC(c3cn(-c4ccccc4)nc3-c3ccc(SC)cc3)C2)cc1 | 6.25 µg/mL | H37Rv | inhibition |  |  | BACTEC | 86%
C[C@@H]1CC[C@]2(C(=O)O)CC[C@]3(C)C(=CCC4[C@@]5(C)CC[C@H](OC(=O)/C=C/c6ccc(Cl)cc6)C(C)(C)C5CC[C@]43C)C2[C@H]1C |  | H37Ra | MIC |  |  | resazurin | >200 µg/mL
COc1ccc2c(=O)c(C)c(-c3ccc(N4CCCCC4)cc3)[nH]c2c1 | 5 µM | H37Rv | inhibition |  |  | fluorescence | 100%
Cc1ccccc1-n1c(-c2ccccc2)cs/c1=N/NC(=O)CSc1nnc(-c2ccccn2)s1 |  | Clinical isolate 331 | MIC |  |  |  | 40 µg/mL
CSc1ccc(-c2nn(-c3ccccc3)cc2C2CC(c3ccc(O)cc3)=NN2C(C)=O)cc1 | 6.25 µg/mL | H37Rv | inhibition |  |  | BACTEC | 42%
CCN1C(C#N)=C(C#N)N=C(c2ccccc2)[C@@H]1/C=C/c1ccccc1 |  | H37Rv | MIC |  |  | broth dilution / visual reading | 12.5 µg/mL
CCOC(=O)/C=C(\C)Nc1ccc(NC(C)=O)cc1 | 12.5 µg/mL | H37Rv | inhibition |  |  | BACTEC | 0%
C=C1CCCC(C)(C)[C@@H]1CC/C(C)=C/CC/C(C)=C/CO |  |  | EC50 |  |  |  | >6.25 µg/mL
C[CH2][Sn]1([CH2]C)[O]C2C(O)OC(CO)C(O)C2[O]1 | 12.5 µg/mL | H37Rv | inhibition |  |  | BACTEC | 91%
CCc1nc2ccc(C)cc2n1CCCCNc1ccc(C)cc1 |  | H37Rv | MIC90 |  | WT | turbidity / fluorescence | 0.88 µM
Clc1ccc(-n2ncc(C(c3ccccc3)n3ccnc3)c2-c2ccccc2)c(Cl)c1 |  | ATCC 27294 | MIC50 |  |  |  | 11.7 µM
Cn1c2ccccc2c2cc(C=NNc3nc(-c4ccc(O)cc4)cs3)ccc21 |  | H37Rv | EC90 |  |  | fluorescence | >200 µM
Clc1ccccc1C(c1ccccc1)(c1ccccc1)n1ccnc1 |  | ATCC 35820 (streptomycin-resistant) | MIC90 |  |  |  | ≥100 µM
O=C(O)/C=C\C(=O)NNc1ccc([N+](=O)[O-])cc1[N+](=O)[O-] | 12.5 µg/mL | H37Rv | inhibition |  |  | BACTEC | 0%
Fc1ccccc1-c1c(C(c2ccccc2)n2ccnc2)cnn1-c1ccccc1F |  | ATCC 27294 | MIC90 |  |  |  | >100 µM
CCN1C(C#N)=C(C#N)N=C(c2cccs2)[C@H]1/C=C/c1ccccc1 |  | H37Rv | MIC |  |  | broth dilution / visual reading | 12.5 µg/mL
C[C@H]1COc2c(N3CCN(C)CC3)c(F)cc3c(=O)c(C(=O)O)cn1c23 |  | Strain 448 | MIC |  |  |  | 0.25 µg/mL
O=C1CC2C3C1N(c1ccc(Cl)cc1)C1(Nc4ccc(Cl)cc4)C(=O)CC(C31)N2c1ccc(Cl)cc1 | 6.25 µg/mL | H37Rv | inhibition |  |  | resazurin | 25%
C=C(C)/C=C/[C@]12C[C@H](C)[C@H]3CC[C@](C)(N)[C@@H](CC[C@H]1C)[C@@H]32 | 64 µg/mL | H37Rv | inhibition |  |  |  | 100%
CCCCc1nc(Cl)c(C2C(C(=O)Nc3ccccc3[N+](=O)[O-])=C(C)NC(C)=C2C(=O)Nc2ccccc2[N+](=O)[O-])[nH]1 | 6.25 µg/mL | H37Rv | inhibition |  |  | resazurin | 91%
O=C(Oc1ccn(C2OC(CO)C(O)C2O)c(=O)c1)C12CC3CC(CC(C3)C1)C2 | 12.5 µg/mL | H37Rv | inhibition |  |  | BACTEC | 1%
C=C(C)[C@@H]1CC[C@]2(C(=O)O)CC[C@]3(C)C(CCC4[C@@]5(C)CC[C@H](OC(=O)/C=C/c6ccc(OC)cc6)C(C)(C)C5CC[C@]43C)C12 |  | H37Ra | MIC |  |  | resazurin | >200 µg/mL
CCc1nc2ccccc2n1CCCCOc1ccc(C)c(C)c1 |  | H37Rv | fold resistance |  | QcrB M342T | turbidity / fluorescence | >20
CCCCc1nc(Cl)c(C2C(C(=O)Nc3ccccc3C)=C(C)NC(C)=C2C(=O)Nc2ccccc2C)[nH]1 | 6.25 µg/mL | H37Rv | inhibition |  |  | resazurin | 46%
O=c1cnn([C@@H]2O[C@H](CO)[C@@H](O)[C@H]2O)c(=O)[nH]1 |  | H37Rv | MIC bound |  |  | resazurin | >6.25 µg/mL
Clc1ccc(-c2c(C(c3ccccc3)n3ccnc3)cnn2-c2ccc(Cl)cc2)cc1 |  | ATCC 35822 (isoniazid-resistant) | MIC50 |  |  |  | ≥100 µM
O=C(NNC(=O)c1cccc2ccccc12)c1ccc(Cl)c(Cl)c1 |  | H37Rv | MIC bound |  |  | BACTEC | >12.5 µg/mL
CCCCc1nc(Cl)c(C2C(C(=O)Nc3ccc(F)cc3)=C(C)NC(C)=C2C(=O)Nc2ccc(F)cc2)[nH]1 |  | H37Rv | MIC |  |  |  | 0.02 µg/mL
COC(=O)c1ccc(C(=O)OC)c2nc3cc(C)ccc3nc12 |  | H37Rv | MIC bound |  |  | BACTEC | >12.5 µg/mL
Cn1c2ccccc2c2cc(C=NNc3nc(-c4cccc(F)c4)cs3)ccc21 |  | H37Rv | EC50 |  |  | fluorescence | >200 µM
O=C1NNC2(C(=O)N1)c1ccccc1-c1ccccc12 | 12.5 µg/mL | H37Rv | inhibition |  |  | BACTEC | 39%
CCN1C(C#N)=C(C#N)N=C(c2ccccc2)[C@H]1/C=C/c1ccccc1 |  | H37Rv | MIC |  |  | broth dilution / visual reading | 12.5 µg/mL
Cc1c(CC[n+]2cccc(C(N)=O)c2)[nH]c(=O)[nH]c1=O.[Cl-] | 12.5 µg/mL | H37Rv | inhibition |  |  | BACTEC | 29%
CCN1C(C#N)=C(C#N)N=C(c2ccsc2)C1/C=C/c1ccc(-c2ccccc2)cc1 |  | H37Rv | MIC |  |  | broth dilution / visual reading | 12.5 µg/mL
CCC(C)c1c(N)n(S(=O)(=O)c2ccc(C)cc2)oc1=O | 6.25 µg/mL | H37Rv | inhibition |  |  | resazurin | 4%
Cn1c2ccccc2c2cc(C=NNc3nc(-c4ccccc4)cs3)ccc21 |  | H37Rv | EC90 |  |  | fluorescence | 62 µM